Test results published in paper doi:10.1101/2021.02.25.432969.

Molecular target: spike Var3 (N439K/D614G), cell surface expressed (SARS-CoV-2) (UniProt P0DTC2)
Assay: flow cytometry on cells

CB6 (antibody) was tested, and the fold reduction in binding against D614G was under 2 fold.
